Molecules are shown by their SMILES.

The target of the assay is HIV-1 NL4-3 CA hexamer (Human immunodeficiency virus type 1 group M subtype B, UniProt P12493, A146C/E177C/M317A/W316A). As to the kind of experiment: biochemical. It is filed as binding.

On to `COc1ccc(N(C)C(=O)[C@H](Cc2cc(F)cc(F)c2)NC(=O)CN2CCN(CC(=O)N[C@@H](Cc3cc(F)cc(F)c3)C(=O)N(C)c3ccc(OC)cc3)C(=O)C2)cc1` [Q-c4, (2S,2′S)-2,2'-((2,2'-(2-oxopiperazine-1,4-diyl)bis(acetyl))bis(azanediyl)) bis(3-(3,5-difluorophenyl)-N-(4-methoxyphenyl)-N-methylpropanamide)], for which the Kd was approximately 8 µM.

These data come from PMC9115767 (European journal of medicinal chemistry, 2021).
